# Values quoted from earlier work in publication PMC10222987 (Viruses, 2023).
# System: mutant isolates used in this study
# Settings: PA/I38T mutant isolates; cited from earlier work
compound,measurement,value
O=C1c2c(O)c(=O)ccn2N([C@@H]2c3ccccc3SCc3c2ccc(F)c3F)[C@@H]2COCCN12 [baloxavir acid],EC50-based fold change (FC) in baloxavir acid susceptibility,27–57
